Literature values in patent US6475491B1, “Treatment of HIV and other viral infections using combinatorial therapy” (priority 1995, dated 2002).
Entries after “also recorded” stand apart in the source; their conditions may differ.

Test system: HIV-1LA1
Conditions: control peptides; cited from earlier work

| SMILES | activity previously shown in the cell-free virus infection assay |
| --- | --- |
| CC[C@H](C)[C@H](NC(=O)[C@H](C)NC(=O)[C@@H](NC(=O)[C@@H](NC(=O)[C@H](CCCNC(=N)N)NC(=O)[C@H](C)NC(=O)[C@H](CCC(N)=O)NC(=O)[C@H](CC(C)C)NC(=O)[C@H](CC(N)=O)NC(=O)[C@H](CCCCN)NC(=O)[C@@H](NC(=O)CNC(=O)[C@H](Cc1c[nH]c2ccccc12)NC(=O)[C@@H](NC(=O)[C@@H](NC(=O)[C@H](CC(C)C)NC(=O)[C@H](CCCNC(=N)N)NC(=O)[C@H](CC(C)C)NC(=O)[C@H](CCSC)NC(=O)[C@H](CCC(=O)O)NC(=O)[C@H](CCC(N)=O)NC(=O)[C@H](CCC(N)=O)NC(=O)[C@H](CCCNC(=N)N)NC(=O)[C@H](CCCCN)NC(=O)[C@@H](NC(=O)[C@@H](NC(=O)[C@H](CC(=O)O)NC(=O)[C@H](CC(C)C)NC(=O)[C@H](CC(C)C)NC(=O)[C@H](CCC(N)=O)NC(=O)[C@H](CCC(N)=O)NC(C)=O)C(C)C)C(C)C)[C@@H](C)O)C(C)C)[C@@H](C)O)C(C)C)[C@@H](C)O)C(=O)N[C@@H](CCC(=O)O)C(=O)N[C@@H](CCCCN)C(=O)N[C@@H](Cc1ccc(O)cc1)C(=O)N[C@@H](CC(C)C)C(=O)N[C@@H](CCCCN)C(=O)N[C@@H](CC(=O)O)C(=O)N[C@@H](CCC(N)=O)C(N)=O [DP-118] | active; also recorded: inhibits HIV-1 cell free virus infection |
| CC[C@H](C)[C@H](NC(=O)CNC(=O)[C@H](Cc1c[nH]c2ccccc12)NC(=O)[C@@H](NC(=O)[C@@H](NC(=O)[C@H](CC(C)C)NC(=O)[C@H](CCC(N)=O)NC(=O)[C@H](CC(C)C)NC(=O)[C@H](CC(C)C)NC(=O)[C@H](Cc1c[nH]cn1)NC(=O)[C@H](CCC(N)=O)NC(=O)[C@H](CCC(N)=O)NC(=O)[C@H](C)NC(=O)[C@H](CCC(=O)O)NC(=O)[C@@H](NC(=O)[C@H](C)NC(=O)[C@H](CCCNC(=N)N)NC(=O)[C@H](CC(C)C)NC(=O)[C@H](CC(C)C)NC(=O)[C@H](CC(N)=O)NC(=O)[C@H](CC(N)=O)NC(=O)CNC(=O)CNC(=O)[C@H](CS)NC(C)=O)[C@@H](C)CC)[C@@H](C)O)C(C)C)C(=O)N[C@@H](CCCCN)C(=O)N[C@@H](CCC(N)=O)C(=O)N[C@@H](CC(C)C)C(=O)N[C@@H](CCC(N)=O)C(=O)N[C@@H](C)C(=O)N[C@@H](CCCNC(=N)N)C(=O)N[C@H](C(=O)N[C@@H](CC(C)C)C(=O)N[C@@H](C)C(=O)N[C@H](C(=O)N[C@@H](CCC(=O)O)C(=O)N[C@@H](CCCNC(=N)N)C(=O)N[C@@H](Cc1ccc(O)cc1)C(=O)N[C@@H](CC(C)C)C(=O)N[C@@H](CCCCN)C(=O)N[C@@H](CC(=O)O)C(=O)N[C@@H](CCC(N)=O)C(N)=O)C(C)C)[C@@H](C)CC [DP-125] | active; also recorded: inhibit HIV-1 cell free virus infection |
